# PubChem BioAssay AID624099 | ICCB-Longwood, 2012
# Screen: 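Human genes that papillomavirus E2 requires to repress the HPV18 LCR promoter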 (primary screen)
# Cells: human C33A cervical carcinoma cells (HPV-negative) stably expressing BPV1 E2 and an HPV18 LCR luciferase reporter
# Reagent: siRNA pool against human genes, 40 nM
# Timing: 72 h
# Read-out: 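HPV18 LCR reporter light per well, converted to plate-wise z-scores that exclude control wells, and averaged over triplicate plates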
# Scale: mean z-score and z-score: higher = stronger reporter signal, weaker E2 silencing
# Hit rule: 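Hit if mean z-score reaches 2 and two or more of three replicate z-scores also reach 2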
# In all, the deposit lists about 21,000 reagents; shown is a random part of them. Of all reagents, 497 (2.4%) got an active call. 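Higher z means weaker E2 silencing; only reporter increases were scored, and knock-downs that hurt cell survival may mask genuine repressor factors.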 The numbers tell different reagents against one gene apart. No sequences are given here.
gene symbol,reagent no.,mean z-score,"z-score, replicate A","z-score, replicate B","z-score, replicate C",Call
NDUFB3 (NADH:ubiquinone oxidoreductase subunit B3),1,-0.98,-1.14,-0.79,-1.02,inactive
SLC17A5,1,-0.12,0.03,-0.42,0.02,inactive
GNG13 (G protein subunit gamma 13),1,0.72,0.9,0.84,0.42,inactive
LOC401445 (retired record),1,0.15,0.39,-0.01,0.07,inactive
OPA3 (outer mitochondrial membrane lipid metabolism regulator OPA3),1,1.17,0.97,0.96,1.59,inactive
AVIL (advillin),1,0.82,1.05,0.51,0.9,inactive
SLIRP-OT1 (SLIRP overlapping transcript 1),1,1.65,1.54,2.17,1.24,inactive
SLC16A11,1,1.54,1.34,1.34,1.93,inactive
IL2RA (interleukin 2 receptor subunit alpha),1,10.4,10,10.6,10.6,active
CAPZA2 (capping actin protein of muscle Z-line subunit alpha 2),1,0.63,0.62,0.7,0.57,inactive
S100PBP (S100P binding protein),1,-0.19,0.06,-0.54,-0.09,inactive
NGRNP1 (NGRN pseudogene 1),1,0.52,0.59,0.66,0.31,inactive
ELOC (elongin C),1,-0.45,-0.21,-0.61,-0.52,inactive
PHC2 (polyhomeotic homolog 2),1,0.87,1.09,0.87,0.66,inactive
DNTTIP1 (deoxynucleotidyltransferase terminal interacting protein 1),1,-0.15,-0.49,-0.14,0.2,inactive
LOC388684 (retired record),1,-0.37,-0.39,-0.27,-0.46,inactive
TNFRSF6B (TNF receptor superfamily member 6b),1,-0.34,-0.62,-0.25,-0.16,inactive
SRGAP2 (SLIT-ROBO Rho GTPase activating protein 2),1,0.18,0.22,0.19,0.14,inactive
GALNT14 (polypeptide N-acetylgalactosaminyltransferase 14),1,0.28,0.13,0.3,0.41,inactive
ZBTB40 (zinc finger and BTB domain containing 40),1,-0.15,-0.28,-0.21,0.03,inactive
IGSF6 (immunoglobulin superfamily member 6),1,-0.37,-0.1,-0.48,-0.52,inactive
GGH (gamma-glutamyl hydrolase),1,1.03,1.16,0.95,0.98,inactive
MMP16 (matrix metallopeptidase 16),1,-0.61,-0.72,-0.64,-0.46,inactive

4 of these entries, reformatted:
{"gene symbol": "NDUFB3 (NADH:ubiquinone oxidoreductase subunit B3)", "reagent no.": 1, "mean z-score": -0.98, "z-score, replicate A": -1.14, "z-score, replicate B": -0.79, "z-score, replicate C": -1.02, "Call": "inactive"}
{"gene symbol": "SLC17A5", "reagent no.": 1, "mean z-score": -0.12, "z-score, replicate A": 0.03, "z-score, replicate B": -0.42, "z-score, replicate C": 0.02, "Call": "inactive"}
{"gene symbol": "GNG13 (G protein subunit gamma 13)", "reagent no.": 1, "mean z-score": 0.72, "z-score, replicate A": 0.9, "z-score, replicate B": 0.84, "z-score, replicate C": 0.42, "Call": "inactive"}
{"gene symbol": "LOC401445 (retired record)", "reagent no.": 1, "mean z-score": 0.15, "z-score, replicate A": 0.39, "z-score, replicate B": -0.01, "z-score, replicate C": 0.07, "Call": "inactive"}

Further reagents:
gene symbol,reagent no.,mean z-score,"z-score, replicate A","z-score, replicate B","z-score, replicate C",Call
DOCK2 (dedicator of cytokinesis 2),1,0.25,0.29,0.09,0.36,inactive
LAMA3 (laminin subunit alpha 3),1,-0.63,-0.75,-0.6,-0.53,inactive
TMSB4X (thymosin beta 4 X-linked),1,0.08,0.32,0.04,-0.13,inactive
H4C5 (H4 clustered histone 5),1,0.15,0.14,0.11,0.19,inactive
TCF21 (transcription factor 21),1,-1.21,-1.09,-1.26,-1.29,inactive
GGCT (gamma-glutamylcyclotransferase),1,-1.54,-1.57,-1.61,-1.46,inactive
AAAS (aladin WD repeat nucleoporin),1,1.2,1.23,1.09,1.27,inactive
CYB5R3 (cytochrome b5 reductase 3),1,0.86,0.86,0.87,0.86,inactive
GAN (gigaxonin),1,-0.69,-0.24,-0.82,-1.03,inactive
LOC402382 (retired record),1,1.19,0.85,1.03,1.67,inactive
TRAF1 (TNF receptor associated factor 1),1,-0.35,-0.13,-0.53,-0.39,inactive
TMTC3 (transmembrane O-mannosyltransferase targeting cadherins 3),1,-0.16,-0.48,0.25,-0.25,inactive
WHR1 (winged helix repair factor 1),1,-1.99,-1.87,-2.28,-1.81,inactive
EVL (Enah/Vasp-like),1,-1.12,-0.84,-1.24,-1.29,inactive
KLK5 (kallikrein related peptidase 5),1,0.01,0.2,-0.15,-0.01,inactive
DTX4 (deltex E3 ubiquitin ligase 4),1,-0.68,-0.47,-0.84,-0.72,inactive
DGCR6 (DiGeorge syndrome critical region gene 6),1,-1.4,-1.39,-1.35,-1.46,inactive
HK1 (hexokinase 1),1,0.19,0.82,-0.1,-0.15,inactive
MATN1 (matrilin 1),1,0.41,0.24,0.46,0.55,inactive
LOC284623 (retired record),1,-0.11,0.18,0.01,-0.52,inactive
GRM7 (glutamate metabotropic receptor 7),1,-0.6,-0.48,-0.42,-0.88,inactive
AGTRAP (angiotensin II receptor associated protein),1,3.71,3.53,3.94,3.66,active
LOC100129603,1,-0.12,-0.17,0.05,-0.24,inactive
LOC100129603,2,-0.02,-0.17,0,0.12,inactive
BRD4 (bromodomain containing 4),1,8.91,9.5,8.82,8.4,active
ETFDH (electron transfer flavoprotein dehydrogenase),1,-0.4,-0.39,-0.8,0,inactive
SLC25A30,1,-0.74,-1.11,-0.69,-0.43,inactive
HRH4 (histamine receptor H4),1,-0.68,-0.83,-0.5,-0.71,inactive
LOC402580 (retired record),1,0.84,0.85,1.23,0.44,inactive
PRICKLE4 (prickle planar cell polarity protein 4),1,-1.68,-1.88,-1.72,-1.44,inactive
CREG1 (cellular repressor of E1A stimulated genes 1),1,0.57,0.88,0.53,0.3,inactive
RPS5 (ribosomal protein S5),1,-2.2,-2.15,-2.31,-2.12,inactive
INTS2 (integrator complex subunit 2),1,-0.59,-0.77,-0.44,-0.57,inactive
LOC285777 (retired record),1,-1.21,-1.19,-1.33,-1.11,inactive
